Compound potency records, mixed from different reports. Data source: NIAID ChemDB in PubChem.

All rows: growth or infection tests; species: Mycobacterium avium intracellulare; measure: MIC

Conditions beyond the fields shown may differ between rows.

compound	strain	value
C#CCNC(=O)O[C@H]1C(O[C@@H]2[C@@H](C)[C@H](O[C@H]3C[C@@](C)(OC)[C@@H](OC(C)=O)[C@H](C)O3)[C@@H](C)C(=O)O[C@H](CC)[C@@](C)(O)[C@H](O)[C@@H](C)/C(=N/OCCCC3CCCCC3)[C@H](C)CC2(C)O)O[C@H](C)C[C@@H]1N(C)C	20067	0.2 µg/mL
CC[C@H]1OC(=O)[C@H](C)[C@@H](OC(=O)C(C)C)[C@H](C)[C@@H](O[C@@H]2O[C@H](C)C[C@H](N(C)C)[C@H]2O)C(C)(O)C[C@@H](C)/C(=N\OCCCOc2ccccc2)[C@H](C)[C@@H](O)[C@]1(C)O	20066 (clarithromycin-susceptible)	3.13 µg/mL
CO[C@H]1/C=C/O[C@@]2(C)Oc3c(C)c(O)c4c(O)c(c5c(c4c3C2=O)NC2(CCN(CC(C)C)CC2)N=5)=NC(=O)/C(C)=C\C=C\[C@H](C)[C@H](O)[C@@H](C)[C@@H](O)[C@@H](C)[C@H](OC(C)=O)[C@@H]1C	N-551 (HIV-)	0.125 µg/mL
CC(=O)NC[C@H]1CN(c2ccc(N3CCN(c4ccc([N+](=O)[O-])s4)CC3)c(F)c2)C(=O)O1	1211/96	8 µg/mL
CCCCCCCCCCCCNNC(=O)O[C@H]1[C@H](O[C@@H]2[C@@H](C)[C@H](O[C@H]3C[C@@](C)(OC)[C@@H](OC(C)=O)[C@H](C)O3)[C@@H](C)C(=O)O[C@H](CC)[C@@](C)(O)[C@H](O)[C@@H](C)/C(=N/OCCCC3CCCCC3)[C@H](C)CC2(C)O)O[C@H](C)C[C@@H]1N(C)C	20066 (clarithromycin-susceptible)	50 µg/mL
CC[C@H]1OC(=O)[C@H](C)[C@@H](O[C@H]2C[C@@](C)(OC)[C@@H](OC(C)=O)[C@H](C)O2)[C@H](C)[C@@H](OC2O[C@H](C)C[C@H](N(C)C)[C@H]2OC(=O)NCC(=O)NC)C(C)(O)C[C@@H](C)/C(=N\OCCCC2CCCCC2)[C@H](C)[C@@H](O)[C@]1(C)O	20066	1.56 µg/mL
CCCNNC(=O)O[C@H]1[C@H](O[C@@H]2[C@@H](C)[C@H](O[C@H]3C[C@@](C)(OC)[C@@H](OC(C)=O)[C@H](C)O3)[C@@H](C)C(=O)O[C@H](CC)[C@@](C)(O)[C@H](O)[C@@H](C)/C(=N/OCCCC3CCCCC3)[C@H](C)CC2(C)O)O[C@H](C)C[C@@H]1N(C)C	20066 (clarithromycin-susceptible)	0.78 µg/mL
CC[C@H]1OC(=O)[C@H](C)[C@@H](O[C@H]2C[C@@](C)(OC)[C@@H](O)[C@H](C)O2)[C@H](C)[C@@H](O[C@@H]2O[C@H](C)C[C@H](N(C)C)[C@H]2O)[C@](C)(OC)C[C@@H](C)C(=O)[C@H](C)[C@@H](O)[C@]1(C)O	N-475 (HIV-)	0.125 µg/mL
CO[C@H]1/C=C/O[C@@]2(C)Oc3c(C)c(O)c4c(O)c(c5c(c4c3C2=O)NC2(CCN(CC(C)C)CC2)N=5)=NC(=O)/C(C)=C\C=C\[C@H](C)[C@H](O)[C@@H](C)[C@@H](O)[C@@H](C)[C@H](OC(C)=O)[C@@H]1C	119	0.5 µg/mL
CCCCNC(=O)O[C@H]1C(O[C@@H]2[C@@H](C)[C@H](O[C@H]3C[C@@](C)(OC)[C@@H](OC(C)=O)[C@H](C)O3)[C@@H](C)C(=O)O[C@H](CC)[C@@](C)(O)[C@H](O)[C@@H](C)/C(=N/OCCCC3CCCCC3)[C@H](C)CC2(C)O)O[C@H](C)C[C@@H]1N(C)C	20066	0.2 µg/mL
CC[C@H]1OC(=O)[C@H](C)[C@@H](O[C@H]2C[C@@](C)(OC)[C@@H](OC(C)=O)[C@H](C)O2)[C@H](C)[C@@H](O[C@@H]2O[C@H](C)C[C@H](N(C)C)[C@H]2OC(=O)NNC2CCCCC2)C(C)(O)C[C@@H](C)/C(=N\OCCCC2CCCCC2)[C@H](C)[C@@H](O)[C@]1(C)O	20066 (clarithromycin-susceptible)	0.39 µg/mL
NNC(=O)c1ccncc1	N-486 (HIV-)	2 µg/mL
C[C@@H](O)[C@H]1C(=O)N2C(C(=O)O)=C(SCCN=CN)C[C@H]12	CIPT 140310021	5 µg/mL
CCNC(=O)O[C@H]1C(O[C@@H]2[C@@H](C)[C@H](O[C@H]3C[C@@](C)(OC)[C@@H](OC(C)=O)[C@H](C)O3)[C@@H](C)C(=O)O[C@H](CC)[C@@](C)(O)[C@H](O)[C@@H](C)/C(=N/OCCCC3CCCCC3)[C@H](C)CC2(C)O)O[C@H](C)C[C@@H]1N(C)C	20073	12.5 µg/mL
Cc1onc(-c2ccccc2Cl)c1C(=O)N[C@@H]1C(=O)N2[C@@H]1SC(C)(C)[C@@H]2C(=O)O	CIPT 140310023	50 µg/mL
CCC(=O)O[C@H]1[C@H](C)OC(O[C@H]2[C@H](C)[C@@H](O[C@@H]3O[C@H](C)C[C@H](N(C)C)[C@H]3O)C(C)(O)C[C@@H](C)/C(=N\OCCCOc3ccccc3)[C@H](C)[C@@H](O)[C@](C)(O)[C@@H](CC)OC(=O)[C@@H]2C)C[C@@]1(C)OC	20066 (clarithromycin-susceptible)	0.78 µg/mL
CCNC(=O)[C@@H](NC(=O)Cc1ccccc1)[C@@H]1N[C@@H](C(=O)NCCNC(=O)[C@@H]2N[C@@H]([C@H](NC(=O)Cc3ccccc3)C(=O)NCC)SC2(C)C)C(C)(C)S1	CIPT 140310019	25 µg/mL
CC[C@H]1OC(=O)[C@H](C)[C@@H](OC2C[C@@](C)(OC)[C@@H](O)[C@H](C)O2)[C@H](C)[C@@H](O[C@@H]2O[C@H](C)C[C@H](N(C)C)[C@H]2O)C(C)(O)C[C@@H](C)/C(=N\OCCN(C)c2ccccc2)[C@H](C)[C@@H](O)[C@]1(C)O	20066 (clarithromycin-susceptible)	1.56 µg/mL
CO[C@H]1/C=C/O[C@@]2(C)Oc3c(C)c(O)c4c(=O)c(c5oc6cc(N7CCN(CC(C)C)CC7)cc(=O)c6nc5c4c3=C2O)NC(=O)/C(C)=C\C=C\[C@H](C)[C@H](O)[C@@H](C)[C@@H](O)[C@@H](C)[C@H](OC(C)=O)[C@@H]1C	N-499 (HIV-)	0.004 µg/mL

The last 2 rows once more:

compound	strain	value
CC[C@H]1OC(=O)[C@H](C)[C@@H](OC2C[C@@](C)(OC)[C@@H](O)[C@H](C)O2)[C@H](C)[C@@H](O[C@@H]2O[C@H](C)C[C@H](N(C)C)[C@H]2O)C(C)(O)C[C@@H](C)/C(=N\OCCN(C)c2ccccc2)[C@H](C)[C@@H](O)[C@]1(C)O	20066 (clarithromycin-susceptible)	1.56 µg/mL
CO[C@H]1/C=C/O[C@@]2(C)Oc3c(C)c(O)c4c(=O)c(c5oc6cc(N7CCN(CC(C)C)CC7)cc(=O)c6nc5c4c3=C2O)NC(=O)/C(C)=C\C=C\[C@H](C)[C@H](O)[C@@H](C)[C@@H](O)[C@@H](C)[C@H](OC(C)=O)[C@@H]1C	N-499 (HIV-)	0.004 µg/mL